Pooled drug test results. Numbers come from NIAID ChemDB, via PubChem.

Shared fields: tests in culture; species: Aspergillus fumigatus; endpoint: MIC

Conditions beyond the fields shown may differ between rows.

structure	strain or isolate	read by	result
CC1C=C(c2ccc(Cl)cc2)C(=O)O1	231		>125 µM
CCCCCS(=O)(=O)C(F)(F)[C@](O)(Cn1cncn1)c1ccc(F)cc1F	IFM 40808		8 µg/mL
Oc1ccc(C(=S)Nc2ccc(F)cc2F)c(O)c1			125 µg/mL
CC1C=C(c2cc3ccccc3s2)C(=O)O1	231		>125 µM
Oc1ccc(C(=S)Nc2ccc(F)cc2)c(O)c1			125 µg/mL
Nc1ccc(S(=O)(=O)Nc2ccnn2-c2ccccc2)cc1	IFM 41362		64 µg/mL
CC1C=C(C23CC4CC(CC(C4)C2)C3)C(=O)O1	231		>125 µM
COC(=O)N[C@H](C(=O)NN(CC[C@]1(Cc2ccccc2)C(=O)N(C2c3ccccc3C[C@H]2O)C[C@H]1O)Cc1ccc(Br)cc1)C(C)(C)C	RCMB 002003	agar	7.8 µg/mL
CC1C=C(c2ccc(Cl)c(Cl)c2)C(=O)O1	231		>62.5 µM
Cc1cc(NS(=O)(=O)c2ccc(N)cc2)nc(C)n1	IFM 53412		≥256 µg/mL
CCOC(=O)c1sc2cc(-c3ccc([N+](=O)[O-])cc3)oc(=O)c2c1N	AF-27		>100 µg/mL
COc1cc(NS(=O)(=O)c2ccc(N)cc2)ncn1	IFM 51126		64 µg/mL
CCOC(=O)c1sc(SC)cc1-c1ccc(Cl)cc1	AF-27		>100 µg/mL
Oc1cccc(NC(=S)c2ccc(O)cc2O)c1			125 µg/mL
CCCCCC1C=C(c2ccc(Br)cc2)C(=O)O1	231		>125 µM
CCOC(=O)C1=C(C)NC(C)=C(C(=O)OCC)C1c1ccc(Br)cc1			500 µg/mL
Oc1ccc(C(=S)Nc2cccc(C(F)(F)F)c2)c(O)c1			62.5 µg/mL
CC1C=C(c2ccc(F)c(F)c2)C(=O)O1	231		125 µM
CCC(C)CC(C)CCCCCCCCC(=O)N[C@H]1C[C@@H](O)[C@H](NCCN)NC(=O)[C@@H]2[C@@H](O)CCN2C(=O)[C@H]([C@H](O)CCN)NC(=O)[C@H]([C@H](O)[C@@H](O)c2ccc(O)cc2)NC(=O)[C@@H]2C[C@@H](O)CN2C(=O)[C@H]([C@@H](C)O)NC1=O	EMC 1	broth dilution	128 µg/mL
Cc1cc(NS(=O)(=O)c2ccc(N)cc2)no1	IFM 41362		64 µg/mL
Cc1ccc(NC(=S)c2ccc(O)cc2O)c(C)c1			62.5 µg/mL
CS(=O)(=O)C(F)(F)[C@](O)(Cn1cncn1)c1ccc(F)cc1F	IFM 40808		8 µg/mL
COc1ccccc1NC(=S)c1ccc(O)cc1O			125 µg/mL
COC(=O)C1=C(C)NC(C)=C(C(=O)OC)C1c1cccc(O)c1			500 µg/mL
CC(=O)c1ccc(NC(=S)c2ccc(O)cc2O)cc1			>500 µg/mL
CCOC(=O)c1sc2cc(-c3ccc(Cl)cc3)oc(=O)c2c1N	AF-27		>100 µg/mL
CCCCCOc1ccc(-c2ccc(-c3ccc(C(=O)N[C@H]4C[C@@H](O)[C@@H](O)NC(=O)[C@@H]5[C@@H](O)[C@@H](C)CN5C(=O)[C@H]([C@H](C)O)NC(=O)[C@H]([C@H](O)[C@@H](O)c5ccc(O)cc5)NC(=O)[C@@H]5C[C@@H](O)CN5C(=O)[C@H]([C@H](C)O)NC4=O)cc3)cc2)cc1	92-245		>50 µg/mL
CCOC(=O)c1sc2cc(-c3cccc([N+](=O)[O-])c3)oc(=O)c2c1N	AF-27		>100 µg/mL
CC(C)CC1NC(=O)CC(CCCCCCCCC(C)O)OC(=O)C(CC(C)C)NC(=O)C(CC(C)C)NC(=O)C(CC(C)C)NC(=O)C(C(C)C)NC(=O)C(CC(=O)O)NC(=O)C(CC(C)C)NC1=O	Clinical isolate	absorbance	4 µg/mL
COC(=O)[C@H]1[C@@H]2C[C@@H](O[C@@H]3O[C@H](C)[C@@H](O)[C@H](N)[C@@H]3O)/C=C/C=C/C=C/C=C/C=C/C=C/C=C/[C@H](C)[C@@H](O)[C@H](C)[C@H](C)OC(=O)C[C@H](O)C[C@H](O)[C@@H](O)CC[C@H](O)C[C@H](O)C[C@](O)(C[C@@H]1O)O2	NCPF 2010		0.48 µM
COC(=O)N[C@H](C(=O)NN(CC[C@@]1(Cc2ccccc2)C(=O)N(C2c3ccccc3C[C@H]2O)C[C@@H]1O)Cc1ccc(-c2ccncc2)cc1)C(C)(C)C	RCMB 002003	agar	15.6 µg/mL
O=C1c2c(O)ccc(O)c2C(=O)c2c(NCCNCCO)ccc(NCCNCCO)c21	NCPF 2010		>100 µM
CCOC(=O)c1sc(SC)c(C#N)c1N	AF-27		>100 µg/mL
COC(=O)N[C@H](C(=O)NN(CC[C@]1(Cc2ccccc2)C(=O)N(C2c3ccccc3C[C@H]2O)C[C@@H]1O)Cc1ccc(Br)cc1)C(C)(C)C	RCMB 002003	agar	15.6 µg/mL
CS(=O)(=O)C(F)C(O)(Cn1cncn1)c1ccc(F)cc1F	IFM 40808		16 µg/mL
CCOC(=O)C1=C(C)NC(C)=C(C(=O)OCC)C1c1ccc(O)c(OC)c1			500 µg/mL
COC(=O)N[C@H](C(=O)NN(CC[C@@]1(Cc2ccccc2)C(=O)N(C2c3ccccc3C[C@H]2O)C[C@H]1O)Cc1ccc(-c2cccnc2)cc1)C(C)(C)C	RCMB 002003	agar	15.6 µg/mL
COc1ccc(C2=CC(C)OC2=O)cc1	231		>125 µM
COC(=O)C1=C(C)NC(C)=C(C(=O)OC)C1c1ccc(OC)cc1			31.25 µg/mL
CCCCCCCCCCCCC(C)(O)C1CC(=O)NC(CO)C(=O)N[C@H](C)C(=O)NC(CC(=O)O)C(=O)NC(CC(N)=O)C(=O)NC(CC(N)=O)C(=O)NC(CO)C(=O)NC([C@@H](C)O)C(=O)O1	MF-13		16 µg/mL
COC(=O)N[C@H](C(=O)NN(CC[C@@]1(Cc2ccccc2)C(=O)N(C2c3ccccc3C[C@H]2O)C[C@@H]1O)Cc1ccc(-c2ccccn2)cc1)C(C)(C)C	RCMB 002003	agar	7.8 µg/mL
CC[C@@]1(O)C(=O)OCc2c1cc1n(c2=O)Cc2cc3c(CN(C)C)c(O)ccc3nc2-1	NCPF 2010		>100 µM
CC1C=C(c2ccc(Br)cc2)C(=O)O1	231		>125 µM

Blank or dashed fields: not listed here.